Anti-infective test results gathered from many reports (values: NIAID ChemDB through PubChem).

Shared fields: tests in culture; organism: HIV-1; cell line: CEM; read-out: fold resistance

Blank or dashed fields: not listed here.

smiles | strain | mutations | method | result
CCn1c(=O)c(C)cn([C@@H]2O[C@H](CO[Si](C)(C)C(C)(C)C)C3(OS(=O)(=O)C=C3N)[C@H]2O[Si](C)(C)C(C)(C)C)c1=O | IIIB TIBO R82150-resistant (RT L100I) | RT-L100I | syncytia | 3
CC(C)=CCN1Cc2cc(Cl)cc3[nH]c(=S)n(c23)C[C@@H]1C | IIIB | RT-V106A | p24 | 25
Fc1cccc(F)c1[C@H]1SCc2nc3ccccc3n21 | IIIB | RT-L100I | cytopathic effect / XTT | 5.03
N#CCN1C(=O)N(Cc2ccccc2)S(=O)(=O)c2cscc21 |  | RT-Y181C | syncytia | >250
O=c1[nH]cnc2c1ncn2[C@H]1CC[C@@H](CO)O1 | IIIB-TIBO(0.5)(RT-L100I) | RT-L100I | syncytia | 1.6
Fc1cccc(F)c1C1OCc2nc3ccccc3n21 | TIBO R82150-resistant (RT K103N) | RT-K103N | cytopathic effect / MTT | ≥3.64
CCOCn1c(Cc2cc(C)cc(C)c2)c(CC)c(=O)[nH]c1=O | IIIB TIBO R82150-resistant (RT L100I) | RT-L100I | syncytia | 54
CCNc1cccnc1N1CCN(C(=O)c2cc3cc(OC)ccc3[nH]2)CC1 | IIIB-TSAO-m3T(10)(RT-Y181C) | RT-Y181C | syncytia | 4
CC(C)Nc1cccnc1N1CCN(C(=O)c2cc3ccccc3[nH]2)CC1 | IIIB | RT-Y181C | syncytia | 12.5
CC(C)=CCN1Cc2cccc3[nH]c(=S)n(c23)C[C@@H]1C | IIIB TIBO R82913 STR-1 (RT L100I Y181C) | RT-L100I Y181C | syncytia | ≥250
CCNc1cccnc1N1CCN(C(=O)c2cc3cc(OC)ccc3[nH]2)CC1 | IIIB PYR(RT-Y181C) | RT-Y181C | syncytia | 20
O=c1[nH]c2ccc(Cl)cc2n1Cc1c(F)cccc1F |  | RT-Y181C | cytopathic effect | >22.7
Cc1cn([C@@H]2O[C@H](CO[Si](C)(C)C(C)(C)C)C3(OS(=O)(=O)C=C3N)[C@H]2O[Si](C)(C)C(C)(C)C)c(=O)n(C)c1=O | IIIB TIBO R82913 STR-2 (RT K103N) | RT-K103N | syncytia | 4
CCc1c(Sc2ccccc2)n(COCc2ccccc2)c(=O)[nH]c1=O | IIIB | RT-Y181C | syncytia | 27.3
CC(C)=CCOc1cc(NC(=S)c2ccoc2C)ccc1Cl | IIIB | RT-V106A | syncytia | 12.78
Cc1c(N)nc(N)nc1OCCOCP(=O)(O)O | Clinical isolate HA20.17 | RT-A62V V75I F77L Q151M M184V | syncytia | 2.9
Cc1cn([C@@H]2O[C@H](CO[Si](C)(C)C(C)(C)C)C3(OS(=O)(=O)C=C3N)[C@H]2O[Si](C)(C)C(C)(C)C)c(=O)n(C)c1=O | IIIB | RT-E138K | syncytia | >1500
c1ccc(C2OCc3nc4ccccc4n32)cc1 | Pyridinone-resistant (RT Y181C) | RT-Y181C | cytopathic effect / MTT | ≥2
CC(C)Nc1cccnc1N1CCN(C(=O)c2cc3ccccc3[nH]2)CC1 | Pyr(RT-Y181C) | RT-Y181C | syncytia | 22.5
CCOCn1c(Sc2ccccc2)c(CC)c(=O)[nH]c1=S | IIIB PYR(RT-Y181C) | RT-Y181C | syncytia | 132.5
Cc1ccnc2c1NC(=O)c1cccnc1N2C1CC1 | E-2 (RT-V106A) | RT-V106A | cytopathic effect | 55
Cc1cn([C@@H]2O[C@H](CO[Si](C)(C)C(C)(C)C)[C@@]3(OS(=O)(=O)C=C3N)[C@H]2O[Si](C)(C)C(C)(C)C)c(=O)[nH]c1=O | IIIB TIBO R82913 STR-1 (RT L100I Y181C) | RT-L100I Y181C | syncytia | 100
CC(C)=CCOc1cc(NC(=S)c2ccsc2C)ccc1Cl | IIIB | RT-E138K | cytopathic effect | 2
CN1C(=O)N(Cc2ccccc2)S(=O)(=O)c2cscc21 |  | RT-V106A | syncytia | >141
Cc1cn([C@@H]2O[C@H](CO[Si](C)(C)C(C)(C)C)C3(OS(=O)(=O)C=C3N)[C@H]2O[Si](C)(C)C(C)(C)C)c(=O)n(C)c1=O | IIIB | RT-Y181C | cytopathic effect / XTT | 107
CCOCn1c(Cc2ccccc2)c(CC)c(=O)[nH]c1=O | IIIB E-EBU(RT-Y181C) | RT-Y181C | syncytia | ≥5000
Cc1cn([C@@H]2O[C@H](CO[Si](C)(C)C(C)(C)C)C3(OS(=O)(=O)C=C3N)[C@H]2O[Si](C)(C)C(C)(C)C)c(=O)n(C)c1=O | IIIB | RT-E138K | cytopathic effect | 1330
C[C@H](Cn1cnc2c(N)ncnc21)OCP(=O)(O)O | Clinical isolate DE434.4 | RT-K65R S68G T69I V75T Q151M | syncytia | 101.2
O=c1[nH]cnc2c1ncn2[C@H]1CC[C@@H](CO)O1 | IIIB | RT-E138K | syncytia | 2.4
CC(C)=CCOc1cc(NC(=S)c2ccoc2C)ccc1Cl | P-1 (RT-K103N Y144F) | RT-K103N Y144F | cytopathic effect | 20
Fc1cccc(F)c1[C@@H]1SCc2nc3ccccc3n21 | IIIB | RT-L100I | cytopathic effect / XTT | 3.75
CCOCn1c(Sc2ccccc2)c(CC)c(=O)[nH]c1=O | IIIB NEV(RT-V106A) | RT-V106A | syncytia | 16
CCN1C(=O)N(Cc2ccccc2)S(=O)(=O)c2cscc21 |  | RT-Y188H | syncytia | >111
Nc1ncnc2c1ncn2CCOCP(=O)(O)O | Clinical isolate DE434.4 | RT-K65R S68G T69I V75T Q151M | syncytia | 46.6
CCc1cc(NCc2nc3c(Cl)ccc(Cl)c3o2)c(=O)[nH]c1C | IIIB-Pyridinone(0.1)(RT-V179N | RT-V179N | syncytia | 6.67
COc1ccc2c(c1)N(C(=O)OC(C)C)[C@@H](CSC)C(=S)N2 | IIIB | RT-G190E | p24 | >10000
Cc1cn([C@@H]2O[C@H](CO[Si](C)(C)C(C)(C)C)C3(OS(=O)(=O)C=C3N)[C@H]2O[Si](C)(C)C(C)(C)C)c(=O)n(C)c1=O | IIIB HEPT-resistant (RT Y188H) | RT-Y188H | syncytia | ≥1670
C=C(C)OC(=O)N1c2cc(Cl)ccc2NC(=S)C1(C)C | TIBO-2(RT-K103N) | RT-K103N | syncytia | 12.9
CCOCn1c(Cc2ccccc2)c(C(C)C)c(=O)[nH]c1=O | P-1 (RT-K103N Y144F) | RT-K103N Y144F | cytopathic effect | 233
Nc1ccn([C@H]2CC[C@@H](CO)O2)c(=O)n1 | IIIB-Nevirapine(1.0)(RT-Y181C) | RT-Y181C | syncytia | 0.8
CCOCn1c(Sc2ccccc2)c(CC)c(=O)[nH]c1=S | IIIB | RT-Y181C | syncytia | 133
Nc1cc(OCCOCP(=O)(O)O)nc(N)n1 | Clinical isolate C20 | RT-M41L D67N V118I M184V L210W T215Y | syncytia | 4.18
N#CCN1C(=O)N(Cc2cccc(F)c2)S(=O)(=O)c2cscc21 |  | RT-K103N | syncytia | 47.5
Cc1cn([C@@H]2O[C@H](CO[Si](C)(C)C(C)(C)C)C3(OS(=O)(=O)C=C3N)[C@H]2O[Si](C)(C)C(C)(C)C)c(=O)n(C)c1=O | IIIB | RT-L100I | p24 | 1.75
Cc1ccnc2c1NC(=O)c1cccnc1N2C1CC1 | IIIB | RT-E138K | syncytia | 0.667
Nc1nc2c(ncn2[C@H]2CC[C@@H](CO)O2)c(=O)[nH]1 | Pyr(RT-Y181C) | RT-Y181C | syncytia | 0.75
Cc1cn([C@H]2C[C@H](N=[N+]=[N-])[C@@H](CO)O2)c(=O)[nH]c1=O | IIIB nevirapine-resistant (RT Y181C) | RT-Y181C | syncytia | 1.67
Cc1cn([C@@H]2O[C@H](CO[Si](C)(C)C(C)(C)C)C3(OS(=O)(=O)C=C3N)[C@H]2O[Si](C)(C)C(C)(C)C)c(=O)n(C)c1=O | MN-QUIN(RT-G190E) | RT-G190E | syncytia | 187.5
Cc1occc1C(=S)Nc1ccc(Cl)c(/C=N/OC(C)(C)C)c1 | IIIB | RT-G190E | p24 | >40

Fold resistance: result on the changed form divided by that on wild type. Rows are shuffled and stem from different studies.